Experimental data published in article PMC5405149.

Target: T1, r-YycF (His-GB1-YycF) (UniProt Q8CQK0)
T1 sequence (looked up): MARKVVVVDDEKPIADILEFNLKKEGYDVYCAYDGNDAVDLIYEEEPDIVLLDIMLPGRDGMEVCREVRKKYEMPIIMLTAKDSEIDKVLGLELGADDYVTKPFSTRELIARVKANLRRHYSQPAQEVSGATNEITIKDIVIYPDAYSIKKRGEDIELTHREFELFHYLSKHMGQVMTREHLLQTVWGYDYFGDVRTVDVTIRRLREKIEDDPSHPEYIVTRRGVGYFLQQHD
Test: EMSA
Settings: EMSA: 20 nM DNA, 10 mM Tris pH 8.0, 25 mM KCl, 1 mM EDTA, 2.5 mM MgCl2, 5% glycerol, 37 C 30 min; recombinant protein; residues 1-233; probe letters rebuilt from the primers and the genome

Sequence: CTTTCCCTCAGTCTTTTATGCCCATATCAATTCATGTAAATTTTCACAAGTATCAGAAAACAATCTAACACAATATAAAAAAATAAATCAAAAAGAAAAATGATATATTTAATCATTTTTTTATTTTTGTACTTCATCTTTTCTATTAGATATAAAAAAAGATGTGTCGTGTTGAGAGTTCAACATTAAATGAAAAACCCAGAAACTCTCTGATAGAGAAACACGATCACATCTTTTAATTCATTCATGATCTCTTTAGTTTTTAAAGCGATTTGCTAAACTAAGTATATCTTCGATGATATTTAATAAGTTGATAAACAAATTAAATCCCATTTCTCTTGGTGAGAATTGACC (double strand) [sarX promoter (serp3220 upstream)]
- binding result: binds

Sequence: GAATATAGCAAATGCTACATTGCTAATTCAAGTATAATCTTTAAAAGATAATTTGTTTTATAAACACTTATTTGTTTACTTCTTAATTTTATTTAGTTATAATTAACTAAATAATATAGCATTAAATATATTCTTTAAATTTAAATTAATACTATATTATGACGGACACTTTCGTATTTTCATAAGAAAAATAGATATAAATTAATAAATTAGGGTATAGTATCCAAGTAATCTTAATTCAATAATATAATTAACTATCTTTAAATTTAAAAAGATGGGTTTTAAGATTTATGGATATGATATAAATAGGGAGGTTTCATTA (double strand) [sarA promoter]
- binding result: binds

Tags and fusion partners may be left off the protein sequences shown.
